The record followed here is PubChem BioAssay AID375 (SRMLSC, 2006).

Sequences of proteins named here, by UniProt entry; tags and fusion partners are left off. A change or cut given only in a name is not applied to a line headed by its entry.
UniProt P9WIL5: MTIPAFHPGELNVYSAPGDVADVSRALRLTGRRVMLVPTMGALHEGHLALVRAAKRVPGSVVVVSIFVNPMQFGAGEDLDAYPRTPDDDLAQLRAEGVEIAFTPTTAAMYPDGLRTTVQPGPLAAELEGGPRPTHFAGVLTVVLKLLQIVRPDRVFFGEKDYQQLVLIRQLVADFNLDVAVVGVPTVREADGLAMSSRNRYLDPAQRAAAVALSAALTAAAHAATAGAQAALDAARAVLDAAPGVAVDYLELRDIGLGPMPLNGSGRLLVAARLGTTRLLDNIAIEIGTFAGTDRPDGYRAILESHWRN

Only a part is listed here, and it is no random draw. The source made the active and inactive calls. The rule behind the calls is not given here.

This assay has as its target Pantothenate synthetase (Mycobacterium tuberculosis (strain ATCC 25618 / H37Rv)) (UniProt P9WIL5). Put plainly: Coupled enzyme confirmation of inhibitors against recombinant Mtb PanC (AID 375).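 Note: 0% = full reaction with vehicle and 100% = no enzyme background.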 The note with it: coupled enzyme assay, at 10 µM, active compounds read high.
One may read the inhibition as the share of the control response that was lost under treatment. As for `O=P(Nc1nccs1)(c1ccccc1)c1ccccc1`, the inhibition was inactive: 2%.

With `O=C(COc1ccccc1)OC1CN2CCC1CC2` (stereo not given), the inhibition is inactive: 0%.

With `COP1(=S)c2c(C)nn(CCC#N)c2N=C(c2ccc(F)cc2)N1C` (stereo not given), the inhibition was inactive: 0%.

With `CCOP1(=S)c2c(C)nn(CCC#N)c2N=C(c2ccccc2F)N1C` (stereo not given), the inhibition was inactive: 0%.

As to `Cc1nn(-c2ccccc2)c2c1P(=O)(N1CCOCC1)N(C)C(c1ccccc1)=N2` (stereo not given), the inhibition is inactive: 0%.
